Results of unrelated studies side by side (data: NIAID ChemDB).

All rows: tests in culture; agent: Mycobacterium tuberculosis

ECn: concentration that inhibits the pathogen or its effect by n%.

| SMILES | endpoint | strain or isolate | dose | method | mutations | value |
|---|---|---|---|---|---|---|
| CO/N=C1\CN(c2nc3c(cc2F)c(=O)c(C(=O)O)cn3C2CC2)CC1CN | MIC | H37Rv |  |  |  | 4 µg/mL |
| O=C1C(c2ccc([N+](=O)[O-])cc2)=[N+]([O-])c2ccccc21 | MIC | H37Rv |  | MTT |  | 50 µM |
| c1cnc2c(c1)ccc1cccnc12 | EC50 | H37Rv |  |  |  | 0.8 µg/mL |
| NC1CCN(c2nc3c(cc2F)c(=O)c(C(=O)O)cn3-c2ccc(F)cc2F)C1 | MIC | H37Rv |  |  |  | 16 µg/mL |
| CCCOC(=O)c1cn(-c2cccnn2)nn1 | inhibition | H37Rv | 6.25 µg/mL |  |  | 13% |
| O=CN/N=C\c1ccnc2ccccc12 | inhibition | H37Rv | 6.25 µg/mL | BACTEC |  | 0% |
| CCCN(/C=N/N=C/c1c2c(O)c3c(O)c(C)c4c(c3c1O)C(=O)[C@@](C)(O/C=C/[C@H](OC)[C@@H](C)[C@@H](OC(C)=O)[C@H](C)[C@H](O)[C@H](C)[C@@H](O)[C@@H](C)/C=C/C=C(/C)C(=O)N2)O4)CCC | MIC | H37Rv |  |  |  | 0.02 µg/mL |
| O=C1C=CC(O)(c2cc3ccccc3s2)C=C1 | MIC | H37Rv |  |  |  | >6.25 µg/mL |
| COc1ccc2[nH]c3c(c2c1)CCNC3CC(C)CCC=C(C)C | inhibition | H37Rv | 6.25 µg/mL | resazurin |  | 62% |
| O=C1C(=O)N(CCCCCCCN2CCN(c3ccnc4cc(Cl)ccc34)CC2)c2ccccc21 | MIC99 | MC2 6230 |  |  |  | 55.8 µM |
| CC(=O)OC1(c2ccccc2)C=CC(=O)C=C1 | EC50 | H37Rv |  |  |  | >6.25 µg/mL |
| Nc1ncnc2c1ncn2C1OC(CO)C(O)C1NS(=O)(=O)c1ccccc1 | MIC bound | H37Rv |  | BACTEC |  | >12.5 µg/mL |
| Cc1c(-[n+]2ccccc2)c(=O)[nH]c2ccccc12 | inhibition | H37Rv | 6.25 µg/mL |  |  | 0% |
| CCCCCOC(=O)c1cn(-c2ccc(-c3ccccc3)nn2)nn1 | inhibition | H37Rv | 6.25 µg/mL |  |  | 99% |
| C[C@H]1COc2c(N3CCN(C)CC3)c(F)cc3c(=O)c(C(=O)O)cn1c23 | MIC50 | 25 strains |  |  |  | 0.39 µg/mL |
| Cc1ccc(NC(=O)CCC(=O)O)cc1Cl | MIC bound | H37Rv |  | BACTEC |  | >12.5 µg/mL |
| CC(C)=Nc1c(-c2ccccc2)c2cc(Cl)ccc2[nH]c1=O | EC50 | H37Rv |  |  |  | >6.25 µg/mL |
| Cc1ccc(/C=N/NC(=O)Nc2ccc3c(c2)C(=O)C(=O)N3CN2CCN(c3ccccc3)CC2)cc1 | MIC | MDR |  | resazurin |  | 12.5 µg/mL |
| Cn1c(=O)c(N)c(-c2ccccc2)c2cc(Cl)ccc21 | EC50 | H37Rv |  |  |  | >6.25 µg/mL |
| CCCCCCCCCCCOC[n+]1cccc(NCn2nnc3ccccc32)c1 | MIC | H37Rv |  |  |  | <6.25 µg/mL |
| CC1NOC(NS(=O)(=O)c2ccc(N=Nc3ccc(=O)[nH]c3O)cc2)C1C | MIC bound | H37Rv |  | BACTEC |  | >12.5 µg/mL |
| CSC(=Nc1ccc(F)cc1)Nn1c(C)nc2ccccc2c1=O | EC50 | H37Rv |  | resazurin |  | 25 µg/mL |
| CCSC1CC(=O)CC(SCC)C1(O)c1ccccc1 | MIC | H37Rv |  |  |  | >6.25 µg/mL |
| NC1=NC(c2cccc(Oc3ccccc3)c2)C=C(c2ccc([N+](=O)[O-])cc2)N1 | MIC | H37Rv |  | resazurin |  | 48.93 µg/mL |
| CCCCCOc1ccccc1NC(=O)OC(C)CN1CCCCC1 | MIC | My 331/88 |  |  |  | 125 µM |
| O=C(O)Cc1ccc(-n2nnc3c(=O)[nH][nH]c(=O)c32)cc1 | inhibition | H37Rv | 12.5 µg/mL | BACTEC |  | 0% |
| CCCCCOc1ccc(NC(=O)OCCN2CCCCC2)cc1 | MIC | My 331/88 |  |  |  | 32 µM |
| CC(=O)N/N=C\c1ccnc2ccccc12 | inhibition | H37Rv | 6.25 µg/mL | BACTEC |  | 26% |
| NNC(=O)c1ccncc1 | MIC | MDR |  | resazurin |  | 12.5 µg/mL |
| C=CCN=C(Nn1c(C)nc2ccccc2c1=O)SC | EC50 | H37Rv |  | resazurin |  | 25 µg/mL |
| N#CC1(OC2OC(CO)C(O)C(O)C2O)C=CC(OS(=O)(=O)O)C1 | inhibition | H37Rv | 12.5 µg/mL | BACTEC |  | 20% |
| Nc1c(-c2ccccc2)c2cc(Cl)ccc2[nH]c1=O | MIC | H37Rv |  |  |  | >6.25 µg/mL |
| O=C1C(=O)N(CCCCCN2CCN(c3ccnc4cc(Cl)ccc34)CC2)c2ccc(F)cc21 | MIC99 | MC2 6230 |  |  |  | <10.41 µM |
| CCOc1ccc(/C=N/NC(=O)c2c(-c3ccccc3)noc2C)cc1 | MIC bound | H37Rv |  | BACTEC |  | >12.5 µg/mL |
| COc1ccc2c(c1)C(=O)C(c1ccc(Oc3ccccc3)cc1)=[N+]2[O-] | MIC | H37Rv |  | MTT |  | 6.25 µM |
| O=C1C(=O)N(CCCCCCN2CCN(c3ccnc4cc(Cl)ccc34)CC2)c2ccccc21 | MIC99 | MC2 6230 |  |  |  | 52.52 µM |
| CCn1cc(C(=O)O)c(=O)c2cc(F)c(N3CCNCC3)cc21 | MIC | H37Rv |  |  |  | 4 µg/mL |
| Cc1ccc(/C=N/NC(=O)Nc2ccc3c(c2)C(=O)C(=O)N3CN2CCNCC2)cc1 | MIC | MDR |  | resazurin |  | >50 µg/mL |
| COC(=O)c1cn(-c2ccc(-c3ccccc3)nn2)nn1 | MIC | H37Rv |  |  |  | >6.25 µg/mL |
| NC1=NC(c2cccc(Oc3ccccc3)c2)C=C(c2ccc(Br)cc2)N1 | inhibition | H37Rv | 6.25 µg/mL | resazurin |  | 79% |
| CCCC1=[N+]([O-])c2ccccc2C1=O | MIC | H37Rv |  | MTT |  | 100 µM |
| C[C@H]1COc2c(N3CCN(C)CC3)c(F)cc3c(=O)c(C(=O)O)cn1c23 | MIC | H37Rv |  |  |  | 0.5 µg/mL |
| O=C1NC(c2ccc(Cl)cc2Cl)=CC(c2cccc(Oc3ccccc3)c2)N1 | inhibition | H37Rv | 6.25 µg/mL | resazurin |  | 74% |
| O=c1[nH]c2ccc(Cl)cc2c(-c2ccccc2)c1-[n+]1ccccc1 | MIC | H37Rv |  |  |  | >6.25 µg/mL |
| O=C1C=CC(O)(c2ccccc2)C=C1 | EC50 | H37Rv |  |  |  | >6.25 µg/mL |
| Cc1c(-c2cnccn2)ssc1=S | MIC bound | H37Rv |  | BACTEC |  | >12.5 µg/mL |
| CO[C@H]1/C=C/O[C@@]2(C)Oc3c(C)c(O)c4c(O)c(c(/C=N/N=C/N(C)C)c(O)c4c3C2=O)NC(=O)/C(C)=C\C=C\[C@H](C)[C@H](O)[C@@H](C)[C@@H](O)[C@@H](C)[C@H](OC(C)=O)[C@@H]1C | MIC | H37Rv |  |  |  | 0.02 µg/mL |
| CCOC(=O)/C=C1\COc2nc(N)[nH]c(=O)c2N1 | MIC bound | H37Rv |  | BACTEC |  | >12.5 µg/mL |
| Fc1ccccc1N/N=C\c1cc(C2C3CC4CC(C3)CC2C4)nc2ccccc12 | inhibition | H37Rv | 6.25 µg/mL | BACTEC |  | 93% |
| CCOC(=O)c1ccc(N2CCN(CCn3c(-c4ccc(C)cc4)nc4cc(C(=O)OCC)ccc43)CC2)c(N)c1 | MIC | INHR-MTB |  | resazurin | Isoniazid-resistant | 2.1 µM |
| CCCCCCCOc1cccc(NC(=O)OCCN2CCCCC2)c1 | MIC | My 331/88 |  |  |  | 8 µM |
| Fc1ccc(C2=CC(c3cccc(Oc4ccccc4)c3)NC(=S)N2)cc1 | inhibition | H37Rv | 6.25 µg/mL | resazurin |  | 81% |
| CO[C@H]1/C=C/O[C@@]2(C)Oc3c(C)c(O)c4c(O)c(c(/C=N/N=C/N5CCCCC5)c(O)c4c3C2=O)NC(=O)/C(C)=C\C=C\[C@H](C)[C@H](O)[C@@H](C)[C@@H](O)[C@@H](C)[C@H](OC(C)=O)[C@@H]1C | MIC | H37Rv |  |  |  | 0.01 µg/mL |
| O=C1NC(c2ccc([N+](=O)[O-])cc2)=CC(c2cccc(Oc3ccccc3)c2)N1 | inhibition | H37Rv | 6.25 µg/mL | resazurin |  | 51% |
| CO[C@H]1/C=C/O[C@@]2(C)Oc3c(C)c(O)c4c(O)c(c(/C=N/N=C/N(C)C5CCCCC5)c(O)c4c3C2=O)NC(=O)/C(C)=C\C=C\[C@H](C)[C@H](O)[C@@H](C)[C@@H](O)[C@@H](C)[C@H](OC(C)=O)[C@@H]1C | MIC | H37Rv |  |  |  | 0.01 µg/mL |
| CCCCCCCCS(=O)(=O)CC(N)=O | MIC | 10129-3 |  |  |  | ≤12.5 µg/mL |
| CN=C(Nn1c(C)nc2ccccc2c1=O)SC | EC50 | H37Rv |  | resazurin |  | 25 µg/mL |
| CCOC(=O)c1ccc(N2CCN(CCn3c(-c4ccc(OC(F)(F)F)cc4)nc4cc(C(=O)OCC)ccc43)CC2)c(N)c1 | MIC | H37Rv |  | resazurin |  | 0.135 µM |
| CCCCCC(=O)C(C)(c1nc2nnc(N)n2[nH]c1=O)c1nc2nnc(N)n2[nH]c1=O | inhibition | H37Rv | 12.5 µg/mL | BACTEC |  | 0% |
| COc1ccc2c(c1)C(=O)C(c1ccc3cc(OC)ccc3c1)=[N+]2[O-] | MIC | H37Rv |  | MTT |  | 6.25 µM |
| Fc1cccc(N/N=C\c2ccnc3ccccc23)c1 | inhibition | H37Rv | 6.25 µg/mL | BACTEC |  | 0% |
| CCOC(=O)c1ccc(N2CCN(CCn3c(-c4ccc(Cl)cc4)nc4cc(C(=O)OCC)ccc43)CC2)c(N)c1 | MIC | INHR-MTB |  | resazurin | Isoniazid-resistant | 24.12 µM |
| NC1=NC(c2cccc(Oc3ccccc3)c2)C=C(c2ccc(Cl)cc2)N1 | inhibition | H37Rv | 6.25 µg/mL | resazurin |  | 87% |
| O=c1[nH][nH]c(=O)c2c1nc(SCc1ccc(Br)cc1)n2Cc1ccccc1 | inhibition | H37Rv | 12.5 µg/mL | BACTEC |  | 0% |
| O=C1C(=O)N(CCCCCCN2CCN(c3ccnc4cc(Cl)ccc34)CC2)c2ccc(Cl)cc21 | MIC99 | MC2 6230 |  |  |  | 19.56 µM |
| CC(=O)N/N=C/c1ccc2ccccc2n1 | inhibition | H37Rv | 6.25 µg/mL | BACTEC |  | 5% |
| O=C(N/N=C/c1ccc(Cl)cc1)Nc1ccc2c(c1)C(=O)C(=O)N2CN1CCN(c2ccccc2)CC1 | MIC | MDR |  | resazurin |  | 6.25 µg/mL |
| CCOC(=O)c1ccc(N2CCN(CCn3c(-c4ccccc4)nc4cc(C(=O)OCC)ccc43)CC2)c(N)c1 | MIC | INHR-MTB |  | resazurin | Isoniazid-resistant | 64.78 µM |
| C=Cc1cnc(NC(C)=O)c(C#N)n1 | MIC bound | H37Rv |  | BACTEC |  | >12.5 µg/mL |
| O=C1C(c2ccc(CO)cc2)=[N+]([O-])c2ccccc21 | EC50 | H37Rv |  | MTT |  | 15.4 µM |
| CCCOC(=O)c1cn(-c2ccc(-c3ccccc3)nn2)nn1 | inhibition | H37Rv | 6.25 µg/mL |  |  | 41% |
| CC1=NN(C(=O)c2ccncc2)C(=O)C1N=Nc1ccccc1C | inhibition | H37Rv | 12.8 µg/mL | BACTEC |  | 24% |
| O=C1C=CC(O)(c2cccc3ccccc23)C=C1 | MIC | H37Rv |  |  |  | <6.25 µg/mL |
| NNC(=O)c1c[nH]c2ccccc2c1=O | inhibition | H37Rv | 12.5 µg/mL | BACTEC |  | 0% |
| CC(=O)Nc1c(OC(C)=O)nc2ccc(Cl)cc2c1-c1ccccc1 | inhibition | H37Rv | 6.25 µg/mL |  |  | 0% |
| COc1ccc2cc(C3=[N+]([O-])c4cc5c(cc4C3=O)OCO5)ccc2c1 | MIC | H37Rv |  | MTT |  | >100 µM |
| CC(=O)CCC1CC(=O)OC1(C)C | MIC bound | H37Rv |  | BACTEC |  | >12.8 µg/mL |
| CSC(=NCc1ccccc1)Nn1c(C)nc2ccccc2c1=O | EC50 | H37Rv |  | resazurin |  | 25 µg/mL |
| CCOC(=O)C1=CNc2c(C#N)cnn2C1(C(=O)OCC)c1cn(C)c2ccccc12 | inhibition | H37Rv | 6.25 µg/mL | BACTEC |  | 0% |
| COC1(c2nc3ccccc3s2)C=CC(=NS(=O)(=O)c2ccc(C)cc2)C=C1 | EC50 | H37Rv |  |  |  | >6.25 µg/mL |
| NNC(=O)c1ccc(C(=O)NN)o1 | inhibition | H37Rv | 12.5 µg/mL | BACTEC |  | 6% |
| Fc1ccc(N/N=C/c2ccnc3ccccc23)cc1 | inhibition | H37Rv | 6.25 µg/mL | BACTEC |  | 0% |
| O=C(CCCC(=O)N/N=C/c1ccc(O)cc1O)N/N=C/c1ccc(O)cc1O | MIC | H37Rv |  | BACTEC |  | ≥12.5 µg/mL |
| CO[C@H]1/C=C/O[C@@]2(C)Oc3c(C)c(O)c4c(O)c(c(/C=N/N5CCN(C)CC5)c(O)c4c3C2=O)NC(=O)/C(C)=C\C=C\[C@H](C)[C@H](O)[C@@H](C)[C@@H](O)[C@@H](C)[C@H](OC(C)=O)[C@@H]1C | MIC | K1 |  |  |  | 1 µg/mL |
| COC1OC(COS(=O)(=O)c2ccc(C)cc2)C(N(C)C(C)=O)C1OS(=O)(=O)c1ccc(C)cc1 | inhibition | H37Rv | 12.5 µg/mL | BACTEC |  | -11% |
| O=CN/N=C/c1ccc2ccccc2n1 | inhibition | H37Rv | 6.25 µg/mL | BACTEC |  | 12% |
| C/C(=N/NC(=S)NCc1ccccc1)c1nccnc1C | MIC | PAS-R |  |  |  | 1.6 µg/mL |
| CSC(=Nc1cccc(Cl)c1)Nn1c(C)nc2ccccc2c1=O | EC50 | H37Rv |  | resazurin |  | 6.25 µg/mL |

MIC50, MIC90 and the like: level of inhibition, or share of isolates inhibited. MIC bound comes from a single tested concentration. Inhibition is in % at the dose shown (toxicity tests: loss of growth or viability). An empty or dashed field is not shown. Rows are shuffled and stem from different studies.